{"source": "patent US20220220466", "molecular_target": "GST-tagged rat VAMP2 (1-93) (UniProt P63045)", "data": [{"substance": "LC/X generated from catalytically active LCHN/X by thrombin activation and DTT", "values": [{"measurement": "cleavage of recombinant GST-VAMP2 (SDS-PAGE, Coomassie blue staining)", "result": "Fusion with nanobodies did not affect cleavage of VAMP2 by LC/X"}]}]}
